Pooled drug test results. Numbers come from NIAID ChemDB, via PubChem.

All rows: host cell toxicity; cell line: MT-4; read-out: CC50

Lines come from different laboratories, so protocols vary. CCn: concentration that lowers growth or viability of the cells by n%. Blank or dashed fields: not listed here.

compound	method	result
CCCCCC(=O)O[C@@]12[C@H](OC(C)=O)[C@@H](C)[C@@]3(O)[C@@H](C=C(CO)C[C@]4(O)C(=O)C(C)=C[C@@H]34)[C@@H]1C2(C)C		>62.5 µg/mL
C=C(C)[C@]12C[C@@H](COC(C)=O)[C@@]34OC5(O[C@@H]1[C@@H]3[C@@H]1O[C@]1(CO)[C@@H](O)[C@@]1(O)[C@H]4[C@H]([C@H](C)[C@@H]1OC(=O)c1ccccc1)[C@H](C)CC(OC(=O)c1ccccc1)C(OC(=O)c1ccccc1)CCC[C@H]5O)O2	luminescence	>0.025 µM
Cc1cc(NS(=O)(=O)c2c(C(C)C)cc(C(C)C)cc2C(C)C)ccc1N1C(=O)c2ccc(Cl)cc2C1=O	MTT / absorbance	0.18 µM
Cc1cn([C@H]2C[C@@H](OCP(=O)(O)O)CO2)c(=O)[nH]c1=O	tetrazolium	>343 µM
C=C(C)[C@]12C[C@@H](COC(=O)c3ccccc3)[C@@]34O[C@]5(O[C@@H]1[C@@H]3[C@@H]1O[C@]1(CO)[C@@H](O)[C@@]1(O)[C@H]4[C@H]([C@H](C)[C@@H]1OC(=O)c1ccccc1)[C@H](C)CCCCCC[C@H]5O)O2	luminescence	>2.5 µM
CS(=O)(=O)c1ccc(OP(=O)(OC[C@@H]2C=C[C@H](n3cnc4c(N)ncnc43)O2)OC[C@@H]2C=C[C@H](n3cnc4c(N)ncnc43)O2)cc1	trypan blue	>250 µM
Cc1cc(N=Cc2ccc(O)cc2)ccc1N1C(=O)c2ccc(Cl)cc2C1=O	MTT / absorbance	0.534 µM
C=C(C)[C@]12C[C@@H](C)[C@@]34OC5(CCCCCCC[C@H](C)[C@H]6[C@H](C)[C@H](O)[C@@](O)([C@H](O)[C@@]7(COC(=O)c8ccccc8)O[C@H]7[C@H]3[C@H]1O5)[C@@H]64)O2	luminescence	>0.03 µM
C=C(C)[C@@H]1CC[C@]2(C(=O)OC)CC[C@]3(C)C(CC[C@@H]4[C@@]5(C)C[C@@H](F)[C@H](OC(=O)CC(C)(C)C(=O)O)C(C)(C)[C@@H]5CC[C@]43C)[C@@H]12	ATP / luminescence	>16 µM
Cc1cn([C@H]2C[C@H](N=[N+]=[N-])[C@@H](COP(=O)(O)O)O2)c(=O)[nH]c1=O	trypan blue / absorbance	648 µM
Nc1ncnc2c1ncn2[C@@H]1OC[C@H](OCP(=O)(O)O)[C@H]1O	tetrazolium	>268 µM
Cc1cc(NS(=O)(=O)C(F)(F)F)ccc1N1C(=O)c2ccc(Cl)cc2C1=O	MTT / absorbance	0.234 µM
Cc1cn([C@H]2C=C[C@@H](COP(=O)(OC[C@@H]3C=C[C@H](n4cc(C)c(=O)[nH]c4=O)O3)Oc3ccc(S(C)(=O)=O)cc3)O2)c(=O)[nH]c1=O	trypan blue	>250 µM
C=C(C)[C@]12C[C@@H](COC(C)=O)[C@@]34OC5(O[C@@H]1[C@@H]3[C@@H]1O[C@]1(COC(=O)c1ccccc1)[C@@H](O)[C@@]1(O)[C@H]4[C@H]([C@H](C)[C@@H]1O)[C@H](C)CC(OC(=O)c1ccccc1)C(OC(C)=O)C(OC(=O)c1ccccc1)CC[C@H]5O)O2	luminescence	>0.025 µM
O=C1CN(C(=O)c2cc(-c3cc(F)cc(Cl)c3)n(-c3ccc(F)c(Cl)c3)n2)CN1	resazurin	15 µM
CSc1ccccc1C1CCCN1C(=O)C(CC(C)C)NC(=O)NCc1ccc(N)cc1	ATP / luminescence	40 µM
O=c1ccn([C@@H]2OC[C@H](OCP(=O)(O)O)[C@H]2O)c(=O)[nH]1	tetrazolium	>155 µM
CO[C@@H]1C=C2C3CC(C)(C)CC[C@]3(C(=O)O)CC[C@@]2(C)[C@]2(C)CCC3C(C)(C)[C@@H](O)CC[C@]3(C)C12	ATP / luminescence	>10 µM
COc1ccccc1CNC(=O)c1ccn(Cc2ccc(Cl)cc2)n1	ATP / luminescence	>50 µM
Cc1cc(N=Cc2ccccc2)ccc1N1C(=O)c2ccc(Cl)cc2C1=O	MTT / absorbance	0.317 µM
Nc1nccc2c1ncn2[C@@H]1C=C(CO)[C@@H](O)[C@H]1O	trypan blue	0.025 µg/mL
CC1(C)S[C@H]([C@H](NC(=O)Cc2ccccc2)C(=O)OCc2ccccc2)N[C@H]1C(=O)NCCNC(=O)[C@@H]1N[C@@H]([C@H](NC(=O)Cc2ccccc2)C(=O)OCc2ccccc2)SC1(C)C		>100 µM
C[C@H](Cn1cnc2c(N)ncnc21)OCP(=O)(O)O	tetrazolium	>350 µM
CC1(C)S[C@H]([C@H](NC(=O)c2ccccc2-c2ccccc2)C(=O)NCc2ccccc2)N[C@H]1C(=O)NCCNC(=O)[C@@H]1N[C@@H]([C@H](NC(=O)c2ccccc2-c2ccccc2)C(=O)NCc2ccccc2)SC1(C)C		>100 µM
Cc1cc(N=Cc2ccc(Cl)cc2)ccc1N1C(=O)c2ccc(Cl)cc2C1=O	MTT / absorbance	0.327 µM
CCNC(=O)[C@@H](NC(=O)Cc1cccs1)[C@@H]1N[C@@H](C(=O)NCCNC(=O)[C@@H]2N[C@@H]([C@H](NC(=O)Cc3cccs3)C(=O)NCC)SC2(C)C)C(C)(C)S1		>100 µM
CCc1cc(CCC2(C3CCCC3)CC(O)=C(Cc3nc4nc(C)cc(C)n4n3)C(=O)O2)cc(CC)n1	luminescence	59 µM
CC1(C)S[C@H]([C@H](NC(=O)Cc2ccccn2)C(=O)NCc2ccc(Cl)cc2)N[C@H]1C(=O)NCCNC(=O)[C@@H]1N[C@@H]([C@H](NC(=O)Cc2ccccn2)C(=O)NCc2ccc(Cl)cc2)SC1(C)C		>100 µM
O=C(O)C(=O)CC(=O)c1cc(OCc2ccccc2)cc(OCc2ccccc2)c1	MTS	88.3 µM
Nc1ccn([C@H]2C[C@@H](OCP(=O)(O)O)CO2)c(=O)n1	tetrazolium	>321 µM
Nc1nccc2c1ncn2[C@@H]1C=C[C@@H](O)[C@H]1O	trypan blue	3.3 µg/mL
Cc1ccc(C(=S)Nc2ccc(N3C(=O)c4ccc(Cl)cc4C3=O)c(C)c2)cc1	MTT / absorbance	0.409 µM
COc1ccc(N(C)C(=O)[C@@H]2Cc3cc(F)cc(c3)/C=C\Cc3[nH]c4ccccc4c3CC(=O)N2)cc1	ATP / luminescence	>34.8 µM
Cc1cc(NC(=O)Cc2ccc3ccccc3c2)ccc1N1C(=O)c2ccc(Cl)cc2C1=O	MTT / absorbance	0.42 µM
CN(C)C(=O)[C@@H](NC(=O)Cc1ccccc1)[C@@H]1N[C@@H](C(=O)NCCNC(=O)[C@@H]2N[C@@H]([C@H](NC(=O)Cc3ccccc3)C(=O)N(C)C)SC2(C)C)C(C)(C)S1		>100 µM
CS(=O)(=O)c1ccc(OP(=O)(OC[C@@H]2CC[C@H](n3cnc4c(N)ncnc43)O2)OC[C@@H]2CC[C@H](n3cnc4c(N)ncnc43)O2)cc1	trypan blue	>250 µM
CCCCCCCCCC(=O)O[C@@]12[C@H](OC(C)=O)[C@@H](C)[C@@]3(O)[C@@H](C=C(COC(C)=O)C[C@]4(OC)C(=O)C(C)=C[C@@H]34)[C@@H]1C2(C)C		>1.95 µg/mL
CCNC(=O)[C@@H](NC(=O)c1ccccc1Cc1ccccc1)[C@@H]1N[C@@H](C(=O)NCCNC(=O)[C@@H]2N[C@@H]([C@H](NC(=O)c3ccccc3Cc3ccccc3)C(=O)NCC)SC2(C)C)C(C)(C)S1		>100 µM
CCCCCCCCCCCCCC(=O)OCC1=C[C@H]2[C@@H]3C(C)(C)[C@]3(OC(=O)CCCCCCCCCCCCC)[C@H](OC(C)=O)[C@@H](C)[C@]2(O)[C@@H]2C=C(C)C(=O)[C@@]2(O)C1		>125 µg/mL
Cc1nc2ccccc2c(-c2ccc3c4c(ccnc24)[C@@H]2C[C@H]32)c1[C@H](OC(C)(C)C)C(=O)O	ATP	>53.2 µM
Cc1cn([C@H]2C=C[C@@H](CO)O2)c(=O)[nH]c1=O	trypan blue	73 µM
Cc1cn([C@H]2C[C@H](N=[N+]=[N-])[C@@H](CO)O2)c(=O)[nH]c1=O	WST	>1 µM
CCCCCCCCCCCCCC(=O)O[C@@H]1[C@@H](C)[C@]2(O)[C@@H]3C=C(C)C(=O)[C@@H]3CC(COC(C)=O)=C[C@H]2[C@@H]2C(C)(C)[C@]12OC(C)=O		>1000 µg/mL